Laboratory results taken from US20240327334A1, “Covalent Inhibitors As Antiviral Agents” (Enanta Pharmaceuticals, Inc., priority 2022, published 2024).

Tests used:
[1] = biological target: SARS-CoV-2 Papain-like (PLpro) protease (Severe acute respiratory syndrome coronavirus 2, UniProt P0DTD1); assay: SARS-CoV-2 Papain-like (PLpro) protease biochemical enzyme inhibition assay (ubiquitin-fluorophore substrate, Ub-R110); conditions: read-out: PLpro IC50, run in duplicate
Procedure: SARS-CoV-2 Papain-like (PLpro) protease biochemical enzyme inhibition assay: Ubiquitin-modified at the C-terminal with a masked fluorophore is used as a substrate for PLpro which cleaves the fluorophore and the unmasked free fluorophore generates a fluorescent signal. The fluorophore is either Rhodamine or AMC. A similar assay is also explored using ISG15-AMC. Procedure: 1) Transfer compounds to 384w assay plates using Echo according to the general platemaps. 2) Add 10 μL of 1× Assay Buffer to LOW control wells and 10 μL of 2× PLpro solution to other wells in the assay plate according to the platemap, spin at 800 rpm for 1 min and incubate at RT for 30 mins. 3) Add 10 μL of 2× substrate solution to each well of enzyme solution according to platemap. Spin at 800 rpm for 1 min and incubate assay at RT in the dark for 30 mins. 4) Spin at 800 rpm and read plates on Virology Envision for Ub-R110 the Ex/Em was 485/535 nm. 5) Normalize data to high and low controls and determine IC50 by fitting data to normalized response versus inhibitor (variable slope) using GraphPad Prism 7. All experiments were run in duplicate, and IC50 ranges are reported as follows: A<0.1 μM; B 0.1-1 μM; C 1-10 μM; D>10 μM.

[2] = tested on: SARS-CoV-2 replicon; assay: SARS-CoV-2 Replicon Assay (Huh-7), Renilla luciferase reporter; conditions: read-out: SARS-CoV-2 replicon EC50, Huh-7 cells
Procedure: White 384-well tissue-culture-treated clear-bottom plates are used in this assay. Using a Labcyte ECHO liquid dispenser, 3-fold serial dilutions of compounds suspended in DMSO are added to the inner 308 wells in duplicate in a total volume of 125 nL per well. Two columns are treated only with 125 nL DMSO, to be used as controls. […] HuH-7 cells at 1E7 cells/mL without RNA are electroporated as a low control. For each 100 μL electroporated cell suspension, 1150 μL pre-warmed (37° C.) media (DMEM, 1× GlutaMAX, 10% FBS) is added to the cells for a final concentration of 800 cells/μL. The electroporated cells are seeded into the 308 inner compound and control wells of the 384-well plate at 20,000 cells per well in a total volume of 25 μL. […] 25 μL of room temperature 1× Renilla-Glo Luciferase Assay Reagent (Promega) are added to each well and incubated at room temperature for 10 minutes and luminescence was measured on a Perkin Elmer EnVision. The Renilla-Glo reagent quantifies the amount of luciferase activity, which gives a measure of replicon activity present. The half-maximal effective concentration (EC50) was determined using GraphPad Prism. Percent residual activity of the replicon is determined after normalizing the curve to the mean RLU high control at 100% and the mean RLU low control at 0%. […]

With COC(=O)/C=C/CNC(=O)C(=O)NCCc1ccccc1C(=O)N[C@H](C)c1cccc2ccccc12 [Example 37] the IC50 [1] was 100 to 1000 nM and the EC50 [2] was under 1000 nM.
